Source: PubChem BioAssay AID624099 (ICCB-Longwood, 2012)
The whole screen tested about 21,000 reagents; this is a part drawn at random. 497 of all reagents (2.4%) count as active. 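Higher z means weaker E2 silencing; only reporter increases were scored, and knock-downs that hurt cell survival may mask genuine repressor factors.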 Reagents against one gene are numbered here.

Screen: 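Human genes that papillomavirus E2 requires to repress the HPV18 LCR promoter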 (primary screen)
System: human C33A cervical carcinoma cells (HPV-negative) stably expressing BPV1 E2 and an HPV18 LCR luciferase reporter
Reagents: siRNA pool against human genes, 40 nM
Timing: 72 h
Measured: 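HPV18 LCR reporter light per well, converted to plate-wise z-scores that exclude control wells, and averaged over triplicate plates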
Direction: mean z-score and z-score: higher = stronger reporter signal, weaker E2 silencing
Hit rule: 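Hit if mean z-score reaches 2 and two or more of three replicate z-scores also reach 2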

What did the screen give for SYDE2 (GeneID 84144)?
mean z-score: -0.91; z-score, replicate A: -1.06; z-score, replicate B: -0.86; z-score, replicate C: -0.83; outcome: inactive

What did the screen give for NEIL1 (GeneID 79661)?
mean z-score: 1.32; z-score, replicate A: 1.27; z-score, replicate B: 1.58; z-score, replicate C: 1.12; outcome: inactive

For ARMS2 (GeneID 387715), what does the deposit list?
mean z-score: -0.64; z-score, replicate A: -0.48; z-score, replicate B: -0.98; z-score, replicate C: -0.47; outcome: inactive

With CLK2 (GeneID 1196), what was measured?
mean z-score: -0.25; z-score, replicate A: 0; z-score, replicate B: -0.21; z-score, replicate C: -0.55; outcome: inactive

What is on record for USH1C (GeneID 10083)?
mean z-score: 0.32; z-score, replicate A: -0.06; z-score, replicate B: 0.35; z-score, replicate C: 0.68; outcome: inactive

With SLCO5A1 (GeneID 81796), what was measured?
mean z-score: -0.04; z-score, replicate A: -0.3; z-score, replicate B: 0.03; z-score, replicate C: 0.14; outcome: inactive

What is on record for MFSD11 (GeneID 79157)?
mean z-score: -0.44; z-score, replicate A: -0.44; z-score, replicate B: -0.58; z-score, replicate C: -0.31; outcome: inactive

What is on record for ARHGAP10 (GeneID 79658)?
mean z-score: 0.51; z-score, replicate A: 0.42; z-score, replicate B: 0.57; z-score, replicate C: 0.54; outcome: inactive

With LINC00869 (GeneID 57234), how do the results read?
mean z-score: -0.1; z-score, replicate A: -0.06; z-score, replicate B: -0.25; z-score, replicate C: 0; outcome: inactive

With NR1D2 (GeneID 9975), what was measured?
mean z-score: -0.42; z-score, replicate A: -0.46; z-score, replicate B: -0.48; z-score, replicate C: -0.32; outcome: inactive

With CDK5RAP3 (GeneID 80279), how do the results read?
mean z-score: -0.68; z-score, replicate A: -0.73; z-score, replicate B: -0.49; z-score, replicate C: -0.83; outcome: inactive

Already shown: 2 of the entries above.
MFSD11 (GeneID 79157) — mean z-score = -0.44; z-score, replicate A = -0.44; z-score, replicate B = -0.58; z-score, replicate C = -0.31; outcome = inactive
ARHGAP10 (GeneID 79658) — mean z-score = 0.51; z-score, replicate A = 0.42; z-score, replicate B = 0.57; z-score, replicate C = 0.54; outcome = inactive

Additional entries follow.
With CAPN12 (GeneID 147968), what was measured?
mean z-score: -1.35; z-score, replicate A: -0.81; z-score, replicate B: -1.41; z-score, replicate C: -1.82; outcome: inactive

Which result is listed for TMEM120A (GeneID 83862)?
mean z-score: -0.74; z-score, replicate A: -0.8; z-score, replicate B: -0.77; z-score, replicate C: -0.66; outcome: inactive

How did the screen score NKAIN2 (GeneID 154215)?
mean z-score: 0.51; z-score, replicate A: 0.26; z-score, replicate B: 0.47; z-score, replicate C: 0.79; outcome: inactive

With DEFA5 (GeneID 1670), how do the results read?
mean z-score: 0.34; z-score, replicate A: 0.34; z-score, replicate B: 0.37; z-score, replicate C: 0.31; outcome: inactive

What is on record for TPSAB1 (GeneID 7177) #1?
mean z-score: 1.39; z-score, replicate A: 1.57; z-score, replicate B: 1.39; z-score, replicate C: 1.2; outcome: inactive

With TPSAB1 (GeneID 7177) #2, what does the deposit list?
mean z-score: -0.14; z-score, replicate A: -0.27; z-score, replicate B: -0.11; z-score, replicate C: -0.03; outcome: inactive

How did the screen score CCDC185 (GeneID 164127)?
mean z-score: 0.9; z-score, replicate A: 0.76; z-score, replicate B: 0.95; z-score, replicate C: 0.99; outcome: inactive

With MRPS21 (GeneID 54460), what does the deposit list?
mean z-score: 0.4; z-score, replicate A: 0.35; z-score, replicate B: 0.38; z-score, replicate C: 0.46; outcome: inactive

For PRELID2 (GeneID 153768), how do the results read?
mean z-score: -0.74; z-score, replicate A: -0.18; z-score, replicate B: -1.12; z-score, replicate C: -0.92; outcome: inactive

Which result is listed for MPZL3 (GeneID 196264)?
mean z-score: -1.68; z-score, replicate A: -1.88; z-score, replicate B: -1.44; z-score, replicate C: -1.71; outcome: inactive
